Source: article PMC4944999 (PLoS ONE, 2016)

Biological target: PeB^GF-Lys, double substituted variant (D6G, Y11F) of PeB-Lys (mouse)
Assay: SPR

hemagglutinin (HA) of influenza A/Aichi/2/68 H3N2 X31, on virus particles (natural protein)
fold amount of hemagglutinin bound compared to PeB: 2 fold
